Reference: US20240122867A1, “CORONAL PROTEIN-COATED NANOPARTICLES AND USES THEREOF” (UNIVERSITY OF CENTRAL FLORIDA RESEARCH FOUNDATION, INC., priority 2021, published 2024)

B1: Apolipoprotein E (protein, UniProt P08226 19-311, looked up)
Apolipoprotein E: EGEPEVTDQLEWQSNQPWEQALNRFWDYLRWVQTLSDQVQEELQSSQVTQELTALMEDTMTEVKAYKKELEEQLGPVAEETRARLGKEVQAAQARLGADMEDLRNRLGQYRNEVHTMLGQSTEEIRARLSTHLRKMRKRLMRDAEDLQKRLAVYKAGAREGAERGVSAIRERLGPLVEQGRQRTANLGAGAAQPLRDRAQAFGDRIRGRLEEVGNQARDRLEEVREHMEEVRSKMEEQTQQIRLQAEIFQARLKGWFEPIVEDMHRQWANLMEKIQASVATNPIITPVAQENQ
B2: Apolipoprotein A-IV (protein, UniProt P06728 21-395, looked up)
Apolipoprotein A-IV: EVTSDQVANVVWDYFTQLSNNAKEAVEQFQKTDVTQQLSTLFQDKLGDASTYADGVHNKLVPFVVQLSGHLAQETERVKEEIKKELEDLRDRMMPHANKVTQTFGENMQKLQEHLKPYAVDLQDQINTQTQEMKLQLTPYIQRMQTTIKENVDNLHTSMMPLATNLKDKFNRNMEELKGHLTPRANELKATIDQNLEDLRRSLAPLTVGVQEKLNHQMEGLAFQMKKNAEELQTKVSAKIDQLQKNLAPLVEDVQSKVKGNTEGLQKSLEDLNRQLEQQVEEFRRTVEPMGEMFNKALVQQLEQFRQQLGPNSGEVESHLSFLEKSLREKVNSFMSTLEKKGSPDQPQALPLPEQAQEQAQEQAQEQVQPKPLES
B3: Cluster of Carboxylesterase 1C (protein, UniProt P23953 19-554, looked up)
Carboxylesterase 1C: HSLLPPVVDTTQGKVLGKYISLEGFEQPVAVFLGVPFAKPPLGSLRFAPPQPAEPWSFVKNATSYPPMCSQDAGWAKILSDMFSTEKEILPLKISEDCLYLNIYSPADLTKSSQLPVMVWIHGGGLVIGGASPYNGLALSAHENVVVVTIQYRLGIWGLFSTGDEHSPGNWAHLDQLAALRWVQDNIANFGGNPDSVTIFGESSGGISVSVLVLSPLGKDLFHRAISESGVVINTNVGKKNIQAVNEIIATLSQCNDTSSAAMVQCLRQKTESELLEISGKLVQYNISLSTMIDGVVLPKAPEEILAEKSFNTVPYIVGFNKQEFGWIIPMMLQNLLPEGKMNEETASLLLRRFHSELNISESMIPAVIEQYLRGVDDPAKKSELILDMFGDIFFGIPAVLLSRSLRDAGVSTYMYEFRYRPSFVSDKRPQTVEGDHGDEIFFVFGAPLLKEGASEEETNLSKMVMKFWANFARNGNPNGEGLPHWPEYDEQEGYLQIGATTQQAQRLKAEEVAFWTELLAKNPPETDPTEHTEHK
B4: Complement factor B (protein, UniProt P04186 23-761, looked up)
Complement factor B: TPVLEARPQVSCSLEGVEIKGGSFQLLQGGQALEYLCPSGFYPYPVQTRTCRSTGSWSDLQTRDQKIVQKAECRAIRCPRPQDFENGEFWPRSPFYNLSDQISFQCYDGYVLRGSANRTCQENGRWDGQTAICDDGAGYCPNPGIPIGTRKVGSQYRLEDIVTYHCSRGLVLRGSQKRKCQEGGSWSGTEPSCQDSFMYDSPQEVAEAFLSSLTETIEGADAEDGHSPGEQQKRKIVLDPSGSMNIYLVLDGSDSIGSSNFTGAKRCLTNLIEKVASYGVRPRYGLLTYATVPKVLVRVSDERSSDADWVTEKLNQISYEDHKLKSGTNTKRALQAVYSMMSWAGDAPPEGWNRTRHVIIIMTDGLHNMGGNPVTVIQDIRALLDIGRDPKNPREDYLDVYVFGVGPLVDSVNINALASKKDNEHHVFKVKDMEDLENVFYQMIDETKSLSLCGMVWEHKKGNDYHKQPWQAKISVTRPLKGHETCMGAVVSEYFVLTAAHCFMVDDQKHSIKVSVGGQRRDLEIEEVLFHPKYNINGKKAEGIPEFYDYDVALVKLKNKLKYGQTLRPICLPCTEGTTRALRLPQTATCKQHKEQLLPVKDVKALFVSEQGKSLTRKEVYIKNGDKKASCERDATKAQGYEKVKDASEVVTPRFLCTGGVDPYADPNTCKGDSGGPLIVHKRSRFIQVGVISWGVVDVCRDQRRQQLVPSYARDFHINLFQVLPWLKDKLKDEDLGFL
B5: BPI fold-containing family A member 1 (protein, UniProt P97361 20-278, looked up)
BPI fold-containing family A …: QLAGLPLPLGQGPPLPLNQGPPLPLNQGQLLPLAQGLPLAVSPALPSNPTDLLAGKFTDALSGGLLSGGLLGILENIPLLDVIKSGGGNSNGLVGGLLGKLTSSVPLLNNILDIKITDPQLLELGLVQSPDGHRLYVTIPLGLTLNVNMPVVGSLLQLAVKLNITAEVLAVKDNQGRIHLVLGDCTHSPGSLKISLLNGVTPVQSFLDNLTGILTKVLPELIQGKVCPLVNGILSGLDVTLVHNIAELLIHGLQFVIKV
B6: Cardiotrophin-like cytokine factor 1 (protein, UniProt Q9QZM3 28-225, looked up)
Cardiotrophin-like cytokine …: LNRTGDPGPGPSIQKTYDLTRYLEHQLRSLAGTYLNYLGPPFNEPDFNPPRLGAETLPRATVNLEVWRSLNDRLRLTQNYEAYSHLLCYLRGLNRQAATAELRRSLAHFCTSLQGLLGSIAGVMATLGYPLPQPLPGTEPAWAPGPAHSDFLQKMDDFWLLKELQTWLWRSAKDFNRLKKKMQPPAASVTLHLEAHGF
B7: Polypeptide N-acetylgalactosaminyltransferase 13 (protein, UniProt Q8CF93 1-556, looked up)
Polypeptide …: MRRFVYCKVVLATSLMWVLVDVFLLLYFSECNKCDDKKERSLLPALRAVISRNQEGPGEMGKAVLIPKDDQEKMKELFKINQFNLMASDLIALNRSLPDVRLEGCKTKVYPDELPNTSVVIVFHNEAWSTLLRTVYSVINRSPHYLLSEVILVDDASERDFLKLTLENYVKTLEVPVKIIRMEERSGLIRARLRGAAASKGQVITFLDAHCECTLGWLEPLLARIKEDRKTVVCPIIDVISDDTFEYMAGSDMTYGGFNWKLNFRWYPVPQREMDRRKGDRTLPVRTPTMAGGLFSIDRNYFEEIGTYDAGMDIWGGENLEMSFRIWQCGGSLEIVTCSHVGHVFRKATPYTFPGGTGHVINKNNRRLAEVWMDEFKDFFYIISPGVVKVDYGDVSVRKTLRENLKCKPFSWYLENIYPDSQIPRRYYSLGEIRNVETNQCLDNMGRKENEKVGIFNCHGMGGNQVFSYTADKEIRTDDLCLDVSRLSGPVIMLKCHHMRGNQLWEYDAERLTLRHANSNQCLDEPSEEDKMVPTMQDCSGSRSQQWLLRNMTLGT
B8: Coagulation factor XIII B chain (protein, UniProt Q07968 22-669, looked up)
Coagulation factor XIII B …: EEKQCDFPTVENGRIAQYYYTFKSFYFPMSVDKKLSFFCLAGYATESGKQEEQIRCTAEGWSPNPRCYKKCLKPDLRNGYVSNDKVLYKLQERMSYGCSSGYKTTGGKDEEVVHCLSAGWSSQPSCRKEQETCLAPELEHGNYSTTQRTFKVKDIVAYTCTAGYYTTTGKQTGEAECQANGWSLTPQCNKLMCSSLRLIENGYFHPVKQTYEEGDVVQFFCHENYYLSGSDLIQCYNFGWYPESPICEGRRNRCPPPPVPLNSKIQPHSTTYRHGERVHIECELNFVIQGSEELLCENGKWTEPPKCIEEKEKVACEQPPSVENGVAHPHSEIYYSGDKVTYRCGGGYSLRGSSTITCNRGRWTLPPECVENIENCKPPPDIANGVVVDGLLASYTTGSSVEYRCNEYYLLKGSETSRCEQGAWSSPPVCLEPCTIDVDHMNRNNIQLKWKYEGKILHGDLIDFVCKQGYNLSPSIPLSEISAQCNRGDVRYPMCIRKESKGMCASPPVIRNGDIVSSAARTYENGSSVEYRCFDNHFLQGSQNVYCVDGVWTTPPSCLEPCTLSFVEMDKNYLQLKWNFDNRPLILHGEYIEFMCKRDAYISETSIAGSVLRVQCDRGRLKYPKCTPRDRRLSFQEALRTRRQMEKR
B9: Antileukoproteinase (protein, UniProt P97430 26-131, looked up)
Antileukoproteinase: GKNDAIKIGACPAKKPAQCLKLEKPQCRTDWECPGKQRCCQDACGSKCVNPVPIRKPVWRKPGRCVKTQARCMMLNPPNVCQRDGQCDGKYKCCEGICGKVCLPPM
B10: Proteasome subunit alpha type-2 (protein, UniProt P49722 2-234, looked up)
Proteasome subunit alpha …: AERGYSFSLTTFSPSGKLVQIEYALAAVAGGAPSVGIKAANGVVLATEKKQKSILYDERSVHKVEPITKHIGLVYSGMGPDYRVLVHRARKLAQQYYLVYQEPIPTAQLVQRVASVMQEYTQSGGVRPFGVSLLICGWNEGRPYLFQSDPSGAYFAWKATAMGKNYVNGKTFLEKRYNEDLELEDAIHTAILTLKESFEGQMTEDNIEVGICNEAGFRRLTPTEVRDYLAAIA
B11: Discoidin domain-containing receptor 2 (protein, UniProt Q62371 22-854, looked up)
Discoidin domain-containing …: KAQVNPAICRYPLGMSGGHIPDEDITASSQWSESTAAKYGRLDSEEGDGAWCPEIPVQPDDLKEFLQIDLRTLHFITLVGTQGRHAGGHGIEFAPMYKINYSRDGSRWISWRNRHGKQVLDGNSNPYDVFLKDLEPPIVARFVRLIPVTDHSMNVCMRVELYGCVWLDGLVSYNAPAGQQFVLPGGSIIYLNDSVYDGAVGYSMTEGLGQLTDGVSGLDDFTQTHEYHVWPGYDYVGWRNESATNGFIEIMFEFDRIRNFTTMKVHCNNMFAKGVKIFKEVQCYFRSEASEWEPTAVYFPLVLDDVNPSARFVTVPLHHRMASAIKCQYHFADTWMMFSEITFQSDAAMYNNSGALPTSPMAPTTYDPMLKVDDSNTRILIGCLVAIIFILLAIIVIILWRQFWQKMLEKASRRMLDDEMTVSLSLPSESSMFNNNRSSSPSEQESNSTYDRIFPLRPDYQEPSRLIRKLPEFAPGEEESGCSGVVKPAQPNGPEGVPHYAEADIVNLQGVTGGNTYCVPAVTMDLLSGKDVAVEEFPRKLLAFKEKLGEGQFGEVHLCEVEGMEKFKDKDFALDVSANQPVLVAVKMLRADANKNARNDFLKEIKIMSRLKDPNIIRLLAVCITEDPLCMITEYMENGDLNQFLSRHEPLSSCSSDATVSYANLKFMATQIASGMKYLSSLNFVHRDLATRNCLVGKNYTIKIADFGMSRNLYSGDYYRIQGRAVLPIRWMSWESILLGKFTTASDVWAFGVTLWETFTFCQEQPYSQLSDEQVIENTGEFFRDQGRQIYLPQPALCPDSVYKLMLSCWRRETKHRPSFQEIHLLLLQQGAE

These molecules were tested on coronal proteins on NPs. Details: HBPE-NPs incubated 1 h with IAV day 5 (V5) mouse sera, 20:1 NP:sera, centrifuged and washed.
Parameters: species or system mouse
For B1, the “V5 Sera_Nanoparticles Quantitative Value (Normalized Total Spectra)” value was 26.11.
In the case of B2, the “V5 Sera_Nanoparticles Quantitative Value (Normalized Total Spectra)” value is reported as 25.022.
For B3, the “V5 Sera_Nanoparticles Quantitative Value (Normalized Total Spectra)” value was 25.022.
For B4, the “V5 Sera_Nanoparticles Quantitative Value (Normalized Total Spectra)” value was 25.022.

Same assay, conditions: HBPE-NPs incubated with IAV day 5 (V5) mouse sera 1 h, 20:1 NP:sera, centrifuged and washed
For B5, the “V5 Sera_Nanoparticles Quantitative Value (Normalized Total Spectra)” value was 0.
In the case of B6, the “V5 Sera_Nanoparticles Quantitative Value (Normalized Total Spectra)” value is reported as 0.
In the case of B7, the “V5 Sera_Nanoparticles Quantitative Value (Normalized Total Spectra)” value is reported as 0.
B8 was tested, and the “V5 Sera_Nanoparticles Quantitative Value (Normalized Total Spectra)” value was 0.
For B9, the “V5 Sera_Nanoparticles Quantitative Value (Normalized Total Spectra)” value was 0.
B10 was tested, and the “V5 Sera_Nanoparticles Quantitative Value (Normalized Total Spectra)” value was 0.
With B11 the “V5 Sera_Nanoparticles Quantitative Value (Normalized Total Spectra)” value was 0.

Same assay, conditions: IAV day 5 (V5) mouse sera alone, no NPs (sera-only control)
With B1 the “V5 Sera Alone (Control) Quantitative Value (Normalized Total Spectra)” value (“V5 Sera Alone … (Normalized Total Spectra)” below) was 63.841.
B2 was tested, and the “V5 Sera Alone … (Normalized Total Spectra)” value was 57.364.
With B3 the “V5 Sera Alone … (Normalized Total Spectra)” value was 30.533.
B4 was tested, and the “V5 Sera Alone … (Normalized Total Spectra)” value was 22.205.

Same assay, conditions: IAV day 5 (V5) mouse sera alone, no NPs; mass spectrometry protein identification
With B5 the “V5 Sera Alone … (Normalized Total Spectra)” value was 0.9252.
With B6 the “V5 Sera Alone … (Normalized Total Spectra)” value was 0.9252.
For B7, the “V5 Sera Alone … (Normalized Total Spectra)” value was 0.9252.
B8 was tested, and the “V5 Sera Alone … (Normalized Total Spectra)” value was 0.9252.
In the case of B9, the “V5 Sera Alone … (Normalized Total Spectra)” value is reported as 0.9252.
In the case of B10, the “V5 Sera Alone … (Normalized Total Spectra)” value is reported as 0.9252.
B11 was tested, and the “V5 Sera Alone … (Normalized Total Spectra)” value was 0.9252.
